# Measurements taken from publication PMC5577569, “Sensitive Detection of α-Conotoxin GI in Human Plasma Using a Solid-Phase Extraction Column and LC-MS/MS” (2017).
# Experiments:
# [1] = Stability of GI in human blood; details: 100 ng/mL, room temperature 3 h vs 0 h, LC-MS/MS, mean ± SD n = 4
# [2] = Recovery of GI from human blood into plasma; details: human blood spiked 100 ng/mL, 37 °C 10 min, centrifuged 3000 rpm to separate plasma, LC-MS/MS, mean n = 4
# [3] = Stability of GI QC samples in human plasma (SPE LC-MS/MS); details: for RE% (relative error vs nominal), long-term (14 days at −20 °C) / RE% (relative error vs nominal), room temperature (5.25 h) / RE% (relative error vs nominal), freeze-thaw (3-cycles) / Mean concentration founded, room temperature (5.25 h): human plasma; for RE% (relative error vs nominal), long-term (14 days at −20 °C) / RE% (relative error vs nominal), room temperature (5.25 h) / RE% (relative error vs nominal), freeze-thaw (3-cycles) / RE% (relative error vs nominal), autosampler (55 h): n = 6; for RE% (relative error vs nominal), freeze-thaw (3-cycles): three freeze (−20 °C)/thaw cycles; for Mean concentration founded, room temperature (5.25 h) / Mean concentration founded, autosampler (55 h): LC-MS/MS, mean ± SD n = 6; for RE% (relative error vs nominal), autosampler (55 h) / Mean concentration founded, autosampler (55 h): pretreated human plasma sample; for RE% (relative error vs nominal), autosampler (55 h): 4 °C autosampler 55 h; for Mean concentration founded, autosampler (55 h): 4 °C in autosampler 55 h
smiles,measurement,setting,value
C[C@@H]1NC(=O)[C@@H]2CCCN2C(=O)[C@H](CC(N)=O)NC(=O)[C@@H]2CSSC[C@@H](C(N)=O)NC(=O)[C@H](CO)NC(=O)[C@H](Cc3ccc(O)cc3)NC(=O)[C@H](Cc3c[nH]cn3)NC(=O)[C@H](CCCNC(=N)N)NC(=O)CNC(=O)[C@H](CSSC[C@H](NC(=O)[C@@H](N)CCC(=O)O)C(=O)N2)NC1=O,mean ratio of GI samples at room temperature for 3 h to GI samples at 0 h,[1],103.54 ± 13.09%
same,relative recovery of human blood (amount of analyte in plasma / amount in blood × 100%),[2],73.48%
same,"RE% (relative error vs nominal), long-term (14 days at −20 °C)",[3]; QC1 6.0 ng/mL,3.76%
same,"RE% (relative error vs nominal), room temperature (5.25 h)",[3]; QC1 6.0 ng/mL,−1.77%
same,"RE% (relative error vs nominal), freeze-thaw (3-cycles)",[3]; QC1 6.0 ng/mL,−7.31%
same,"Mean concentration founded, room temperature (5.25 h)",[3]; QC1 nominal 6.0 ng/mL,5.9 ± 0.4 ng/mL
same,"RE% (relative error vs nominal), long-term (14 days at −20 °C)",[3]; QC2 40.0 ng/mL,4.95%
same,"RE% (relative error vs nominal), room temperature (5.25 h)",[3]; QC2 40.0 ng/mL,−10.54%
same,"RE% (relative error vs nominal), freeze-thaw (3-cycles)",[3]; QC2 40.0 ng/mL,−4.53%
same,"Mean concentration founded, room temperature (5.25 h)",[3]; QC2 nominal 40.0 ng/mL,35.8 ± 2.5 ng/mL
same,"RE% (relative error vs nominal), long-term (14 days at −20 °C)",[3]; QC3 225.0 ng/mL,−1.38%
same,"RE% (relative error vs nominal), room temperature (5.25 h)",[3]; QC3 225.0 ng/mL,−10.87%
same,"RE% (relative error vs nominal), freeze-thaw (3-cycles)",[3]; QC3 225.0 ng/mL,−8.58%
same,"Mean concentration founded, room temperature (5.25 h)",[3]; QC3 nominal 225.0 ng/mL,200.5 ± 5.6 ng/mL
same,"RE% (relative error vs nominal), autosampler (55 h)",[3]; QC1 6.0 ng/mL,3.13%
same,"Mean concentration founded, autosampler (55 h)",[3]; QC1 nominal 6.0 ng/mL,6.2 ± 0.6 ng/mL
same,"RE% (relative error vs nominal), autosampler (55 h)",[3]; QC2 40.0 ng/mL,−5.49%
same,"Mean concentration founded, autosampler (55 h)",[3]; QC2 nominal 40.0 ng/mL,37.8 ± 4.3 ng/mL
same,"RE% (relative error vs nominal), autosampler (55 h)",[3]; QC3 225.0 ng/mL,−9.56%
same,"Mean concentration founded, autosampler (55 h)",[3]; QC3 nominal 225.0 ng/mL,203.5 ± 15.4 ng/mL
